From article doi:10.1101/2025.02.03.636340 (bioRxiv, 2025)

Assays:
[1] = target: HA-SNAP-mGluR2 (rat metabotropic glutamate receptor 2) (rat, SNAP tag labelled with SBG-JF646); assay: single molecule pulldown
[2] = target: HA-SNAP-mGluR3 (rat metabotropic glutamate receptor 3) (rat, SNAP tag labelled with SBG-JF646); assay: single molecule pulldown
[3] = target: T1, HA-FLAG-mGluR8 (full-length, human, wild-type mGluR8 for EM) (human, UniProt O00222 34-908); assay: negative stain EM
T1 sequence: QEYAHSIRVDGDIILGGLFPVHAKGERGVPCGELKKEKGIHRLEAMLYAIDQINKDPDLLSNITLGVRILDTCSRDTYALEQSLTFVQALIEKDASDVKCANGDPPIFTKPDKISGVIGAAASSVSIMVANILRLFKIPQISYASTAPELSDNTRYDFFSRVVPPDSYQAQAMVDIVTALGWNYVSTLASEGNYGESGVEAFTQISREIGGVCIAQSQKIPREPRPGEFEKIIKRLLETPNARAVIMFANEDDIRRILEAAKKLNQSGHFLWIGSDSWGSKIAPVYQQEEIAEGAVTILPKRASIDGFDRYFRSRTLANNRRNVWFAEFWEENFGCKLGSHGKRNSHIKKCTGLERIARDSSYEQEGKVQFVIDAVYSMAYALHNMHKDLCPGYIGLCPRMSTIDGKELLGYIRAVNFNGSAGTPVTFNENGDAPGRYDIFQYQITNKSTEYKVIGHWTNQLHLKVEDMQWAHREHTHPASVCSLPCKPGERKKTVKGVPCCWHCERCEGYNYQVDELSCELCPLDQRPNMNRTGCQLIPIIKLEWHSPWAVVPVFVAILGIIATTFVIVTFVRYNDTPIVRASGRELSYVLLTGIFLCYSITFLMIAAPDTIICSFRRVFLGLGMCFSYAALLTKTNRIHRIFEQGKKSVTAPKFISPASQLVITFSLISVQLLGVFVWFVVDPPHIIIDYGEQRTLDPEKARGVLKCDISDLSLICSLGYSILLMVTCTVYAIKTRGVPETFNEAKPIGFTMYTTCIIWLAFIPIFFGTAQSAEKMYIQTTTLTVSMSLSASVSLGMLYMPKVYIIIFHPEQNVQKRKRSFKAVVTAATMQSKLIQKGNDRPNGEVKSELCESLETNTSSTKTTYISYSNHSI

B1: β-arr1-Halo (rat beta-arrestin 1, wild type, C-terminally Halo-tagged) (natural protein)
chain: MGDKGTRVFKKASPNGKLTVYLGKRDFVDHIDLVDPVDGVVLVDPEYLKERRVYVTLTCAFRYGREDLDVLGLTFRKDLFVANVQSFPPAPEDKKPLTRLQERLIKKLGEHAYPFTFEIPPNLPCSVTLQPGPEDTGKACGVDYEVKAFCAENLEEKIHKRNSVRLVIRKVQYAPERPGPQPTAETTRQFLMSDKPLHLEASLDKEIYYHGEPISVNVHVTNNTNKTVKKIKISVRQYADICLFNTAQYKCPVAMEEADDTVAPSSTFCKVYTLTPFLANNREKRGLALDGKLKHEDTNLASSTLLREGANREILGIIVSYKVKVKLVVSRGGLLGDLASSDVAVELPFTLMHPKPKEEPPHREVPESETPVDTNLIELDTNDDDIVFEDFARQRLKGMKDDKDEEDDGTGSPHLNNR
modifications: Halo tag labelled with CA-JF549
[1]
  % colocalization: < 5%

B2: β-arr1-ΔCTD-Halo (rat beta-arrestin 1 lacking the autoinhibitory C-terminal domain, aa 383-418) (domain or fragment)
chain: MGDKGTRVFKKASPNGKLTVYLGKRDFVDHIDLVDPVDGVVLVDPEYLKERRVYVTLTCAFRYGREDLDVLGLTFRKDLFVANVQSFPPAPEDKKPLTRLQERLIKKLGEHAYPFTFEIPPNLPCSVTLQPGPEDTGKACGVDYEVKAFCAENLEEKIHKRNSVRLVIRKVQYAPERPGPQPTAETTRQFLMSDKPLHLEASLDKEIYYHGEPISVNVHVTNNTNKTVKKIKISVRQYADICLFNTAQYKCPVAMEEADDTVAPSSTFCKVYTLTPFLANNREKRGLALDGKLKHEDTNLASSTLLREGANREILGIIVSYKVKVKLVVSRGGLLGDLASSDVAVELPFTLMHPKPKEEPPHREVPESETPVDTNLIELDTN
modifications: Halo tag labelled with CA-JF549 (or a mix of CA-JF549 and CA-JF646)
[1]
  % colocalization: < 5%
[2]
  % colocalization: ~25%

B3: β-arr1-ΔCTD co-purified with HA-FLAG-mGluR8 (domain or fragment)
chain: MGDKGTRVFKKASPNGKLTVYLGKRDFVDHIDLVDPVDGVVLVDPEYLKERRVYVTLTCAFRYGREDLDVLGLTFRKDLFVANVQSFPPAPEDKKPLTRLQERLIKKLGEHAYPFTFEIPPNLPCSVTLQPGPEDTGKACGVDYEVKAFCAENLEEKIHKRNSVRLVIRKVQYAPERPGPQPTAETTRQFLMSDKPLHLEASLDKEIYYHGEPISVNVHVTNNTNKTVKKIKISVRQYADICLFNTAQYKCPVAMEEADDTVAPSSTFCKVYTLTPFLANNREKRGLALDGKLKHEDTNLASSTLLREGANREILGIIVSYKVKVKLVVSRGGLLGDLASSDVAVELPFTLMHPKPKEEPPHREVPESETPVDTNLIELDTN
[3]
  binding result: binds
